The subject of the series is MSSP-10 cells. Description: DSPA drug sensitivity pattern, MSSP-10 cells. The format is cell-based. To be noted: drug sensitivity pattern of F25 + substance vs MSSP-10.

This note sets out measurements from patent publication US20040086901A1, “Database for analyzing gene function and method of analyzing gene function by dspa” (priority 2000, published 2004).

The amount applied is not stated for every result. Non-standard residues stand in square brackets, D forms with d. Residues, ends and D or L forms follow the SMILES beside them. Nle = CCCC[C@H](N)C(=O)O

Take `CC(=O)N[C@@H](CSC(=O)[C@]1([C@@H](O)C(C)C)NC(=O)[C@H](C)[C@@H]1O)C(=O)O` [lactacystin]: the “correlation coefficient (r) with MSSP-10” value is listed as −0.07.

Take `CCCC[C@@H](C=O)NC(=O)[C@H](CC(C)C)NC(=O)[C@H](CC(C)C)NC(C)=O` [ALLN] (Ac-Leu-Leu-[Nle]-aldehyde): the “correlation coefficient (r) with MSSP-10” value is recorded as −0.44.

For `C[C@@H](N)[C@H]1CC[C@H](C(=O)Nc2ccncc2)CC1` [Y27632], the “correlation coefficient (r) with MSSP-10” value is reported as −0.11. With `CC(C)(C)C(=O)Oc1ccc(S(=O)(=O)Nc2ccccc2C(=O)NCC(=O)O)cc1` [ONO5046], the “correlation coefficient (r) with MSSP-10” value was determined as 0.26.
